The values that follow come from ChEMBL document CHEMBL1122575, “Dependence of beta-lactamase stability on substructures within beta-lactam antibiotics” (J Med Chem, 1984).

Assay [1] concerns Escherichia coli. The assay is described as follows: Compound was evaluated for the antibacterial activity against Escherichia coli (RTEM- organism); 0.8/1.6.
The test system of assay [2] is Escherichia coli. The assay is described as follows: Compound was evaluated for the antibacterial activity against Escherichia coli (RTEM+ organism); 12.5/50.

SMILES strings stand for the structures. Values after ≈ are worked out from the molar mass of the structure shown.

In the case of `CC(C)(O/N=C(/C(=O)N[C@H]1CN(OP(C)(=O)O)C1=O)c1csc(N)n1)C(=O)O`, the minimum inhibitory concentration (MIC) was 0.8 µg/mL (≈ 1.84 µM) with Escherichia coli [1] and 12.5 µg/mL (≈ 28.7 µM) against Escherichia coli [2].

The MIC is the lowest concentration found to suppress growth. Low values mean greater potency, high ones weaker potency.
